The target in the experiment is T1, MtbHtpG (high-temperature protein G) (Mycobacterium tuberculosis H37Rv).
T1 construct: also called Chaperone htpG
Kind of experiment: SPR. As to conditions: both partners purified.

This note sets out measurements from publication PMC10715591, “EspB and HtpG interact with the type III-A CRISPR/Cas system of Mycobacterium tuberculosis” (Frontiers in Molecular Biosciences, 2023).

As usually defined, the Kd is the free concentration of one partner at which half of the binding sites on the other are occupied at equilibrium, for simple one-to-one binding. High values mean lower affinity, low ones higher affinity. As usually defined, the koff is a measure of how fast the partners let go of each other. A higher koff goes with fast dissociation. Usually kon stands for the rate constant with which the complex forms.

B1: ESX-1 secretion-associated protein EspB (natural protein)
chain: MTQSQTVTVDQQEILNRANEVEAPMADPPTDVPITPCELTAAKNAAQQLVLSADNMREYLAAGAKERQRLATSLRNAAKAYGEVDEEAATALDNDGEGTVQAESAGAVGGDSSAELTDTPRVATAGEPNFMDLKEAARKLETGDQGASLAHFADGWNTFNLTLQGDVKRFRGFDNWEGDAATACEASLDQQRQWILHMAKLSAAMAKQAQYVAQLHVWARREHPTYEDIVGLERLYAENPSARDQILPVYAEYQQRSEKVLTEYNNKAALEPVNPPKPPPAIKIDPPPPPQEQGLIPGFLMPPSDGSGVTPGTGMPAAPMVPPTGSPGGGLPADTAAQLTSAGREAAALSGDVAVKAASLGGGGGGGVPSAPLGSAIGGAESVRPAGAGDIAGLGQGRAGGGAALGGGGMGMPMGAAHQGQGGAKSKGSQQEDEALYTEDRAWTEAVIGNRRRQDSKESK
notes: also called Esx-1 secreted protein B
The molecule B1 registered a dissociation constant (Kd) of 8.88 nM, a dissociation rate constant (koff) of 0.00199 s⁻¹ and a kon of 224000 M⁻¹ s⁻¹.
